Measured values from several laboratories, pooled; numbers as filed in NIAID ChemDB.

Common to all: toxicity to cultured cells; cell line: MCF-7; measure: CC50

Neighbouring rows are from separate reports. An empty or dashed field is not shown. CCn: concentration that lowers growth or viability of the cells by n%.

structure | method | value
O=c1c2cc(O)c(O)cc2oc2cc(O)cc(O)c12 | sulforhodamine / absorbance | >50 µM
C/C=C/c1ccc2c(c1)[C@H](C)[C@@H](c1ccc(OC)c(OC)c1)O2 | sulforhodamine / absorbance | 39.5 µM
COc1cc(O)cc2oc3cc(O)c(O)cc3c(=O)c12 | sulforhodamine / absorbance | >50 µM
Cc1cc(NS(=O)(=O)c2ccc(N3C(=O)CSC3c3ccc(C(F)(F)F)cc3)cc2)no1 | MTT | >100 µg/mL
CC(C)(O)c1ccc2c(c1)CC[C@H]1[C@](C)(C(=O)O)CCC[C@]21C | absorbance | 35.14 µg/mL
C=C[C@]1(C)C=C2C(=O)c3c(NC=O)cccc3C(C)(C)[C@H]2C[C@H]1O | - | >100 µM
CC(C)=CCC[C@@H](C)[C@@H]1CC[C@]2(C)C3=C(CC[C@@]12C)[C@@]1(C)CC[C@H](O)C(C)(C)[C@@H]1CC3 | sulforhodamine / absorbance | >50 µM
C/C(=C\C=C\[C@@H](C)C1CC[C@@]2(C)[C@@H]3CC[C@H]4C(C)(C)C(=O)CC[C@]4(C)[C@@]3(O)CC[C@]12C)C(=O)O | - | >40 µM
Cc1cc(NS(=O)(=O)c2ccc(N3C(=O)CSC3c3c(F)cccc3F)cc2)no1 | MTT | >100 µg/mL
COC(=O)/C(C)=C/C=C/[C@@H](C)[C@H]1CC[C@@]2(C)C3CC[C@H]4C(C)(C)C(=O)CC[C@]4(C)[C@@]3(O)CC[C@]12C | - | >40 µM
CCCCC[C@@H]1OC(=O)CNC(=O)[C@H]([C@@H](C)CC)NC(=O)[C@@H]2CCCN2C(=O)[C@H]([C@@H](C)CC)OC(=O)[C@H](Cc2ccccc2)N(C)C(=O)[C@H](C(C)C)NC(=O)C1(C)C | MTT | 73 µM
C[C@H]1[C@H](O)[C@@H](C)/C=C/C=C/C=C/C=C/C=C/C=C/C=C/[C@H](O[C@@H]2O[C@H](C)[C@@H](O)[C@H](N)[C@@H]2O)C[C@@H]2O[C@](O)(C[C@@H](O)C[C@@H](O)CC[C@H](O)[C@@H](O)C[C@@H](O)CC(=O)O[C@H]1C)C[C@H](O)[C@H]2C(=O)O | MTT | 4.96 µg/mL
COC(=O)/C(C)=C/C=C/[C@@H](C)C1CC[C@@]2(C)[C@@H]3CC[C@H]4C(C)(C)C(=O)CC[C@]4(C)C3=CC[C@]12C | - | >40 µM
COc1ccc(-c2cc(OC)c(O)c(OC)c2O)cc1 | sulforhodamine / absorbance | >50 µM
CC(=O)OC1C(COC(=O)/C=C/c2ccc(O)cc2)OC(COC(=O)/C=C/c2ccc(O)cc2)(OC2OC(COC(=O)/C=C/c3ccc(O)cc3)[C@@H](OC(C)=O)[C@H](O)[C@H]2O)C1OC(=O)/C=C/c1ccc(O)cc1 | MTT | 2.87 µg/mL
O=c1[nH]c(=O)n([C@H]2C[C@H](O)[C@@H](CO)O2)cc1C12B3B4B5B6B(B3B1B42)B1B5C61 | - | >100 µM
CC(C)=CC[C@H]1C[C@]2(C[C@H]3CCC(C)(C)C=C3C)C(=O)C3=C(OC(C)(C)CC3)[C@@](C(=O)c3ccccc3)(C2=O)C1(C)C | sulforhodamine / absorbance | >50 µM
C#CCCC[C@@H]1OC(=O)CNC(=O)[C@H]([C@@H](C)CC)NC(=O)[C@@H]2CCCN2C(=O)[C@H]([C@@H](C)CC)OC(=O)[C@H](Cc2ccccc2)NC(=O)[C@H](C(C)C)NC(=O)C1(C)C | MTT | >100 µM

2 of the rows above, restated:

structure | method | value
C=C[C@]1(C)C=C2C(=O)c3c(NC=O)cccc3C(C)(C)[C@H]2C[C@H]1O | - | >100 µM
C/C=C/c1ccc2c(c1)[C@H](C)[C@@H](c1ccc(OC)c(OC)c1)O2 | sulforhodamine / absorbance | 39.5 µM